Several values for one entry are separate records, joined by “and”; a condition that tells them apart may be missing. Identical values can stand only once.
System: pLAI reporter virus
Type: cell-based, HIV
Conditions: EC50 (50% HS)/EC50 (CCM)

| Compound | RLUC 50% HS Shift |
| --- | --- |
| CC1=NO[C@@]2(CC[C@H](C)N3C[C@H]2n2cc(C(=O)NCc4c(F)cc(F)cc4F)c(=O)c(O)c2C3=O)[C@@H]1F [Example 33, (3′S,4R,5R,7′R)-4-fluoro-12′-hydroxy-3,3′-dimethyl-1′,11′-dioxo-N-(2,4,6-trifluorobenzyl)-1′,4′,5′,11′-tetrahydro-3′H,4H,7′H-spiro[isoxazole-5,6′-[2,7]methanopyrido[1,2-a][1,4]diazonine]-10′-carboxamide] | 854× |
| CC1=NO[C@@]2(CC[C@H](C)N3C[C@H]2n2cc(C(=O)NCc4ccc(F)c(Cl)c4F)c(=O)c(O)c2C3=O)[C@H]1C [Example 34, (3′S,4S,5S,7′R)—N-(3-chloro-2,4-difluorobenzyl)-12′-hydroxy-3,3′,4-trimethyl-1′,11′-dioxo-1′,4′,5′,11′-tetrahydro-3′H,4H,7′H-spiro[isoxazole-5,6′-[2,7]methanopyrido[1,2-a][1,4]diazonine]-10′-carboxamide] | 384× |
| CC1=NO[C@@]2(CC[C@H](C)N3C[C@H]2n2cc(C(=O)NCc4ccc(F)c(Cl)c4F)c(=O)c(O)c2C3=O)[C@H]1O [Example 35, (3′S,4S,5R,7′R)—N-(3-chloro-2,4-difluorobenzyl)-4,12′-dihydroxy-3,3′-dimethyl-1′,11′-dioxo-1′,4′,5′,11′-tetrahydro-3′H,4H,7′H-spiro[isoxazole-5,6′-[2,7]methanopyrido[1,2-a][1,4]diazonine]-10′-carboxamide] | 340× |
| COC1=NO[C@@]2(CC[C@H](C)N3C[C@H]2n2cc(C(=O)NCc4c(F)cc(F)cc4F)c(=O)c(O)c2C3=O)C1 [Example 36, (3′S,5S,7′R)-12′-hydroxy-3-methoxy-3′-methyl-1′,11′-dioxo-N-(2,4,6-trifluorobenzyl)-1′,4′,5′,11′-tetrahydro-3′H,4H,7′H-spiro[isoxazole-5,6′-[2,7]methanopyrido[1,2-a][1,4]diazonine]-10′-carboxamide] | 138× |
| COC1=NO[C@]2(CC[C@H](C)N3C[C@H]2n2cc(C(=O)NCc4c(F)cc(F)cc4F)c(=O)c(O)c2C3=O)C1 [Example 37, (3′S,5R,7′R)-12′-hydroxy-3-methoxy-3′-methyl-1′,11′-dioxo-N-(2,4,6-trifluorobenzyl)-1′,4′,5′,11′-tetrahydro-3′H,4H,7′H-spiro[isoxazole-5,6′-[2,7]methanopyrido[1,2-a][1,4]diazonine]-10′-carboxamide] | 12× |
| COCCOC1=NO[C@@]2(CC[C@H](C)N3C[C@H]2n2cc(C(=O)NCc4c(F)cc(F)cc4F)c(=O)c(O)c2C3=O)C1 [Example 38, (3′S,5S,7′R)-12′-hydroxy-3-(2-methoxyethoxy)-3′-methyl-1′,11′-dioxo-N-(2,4,6-trifluorobenzyl)-1′,4′,5′,11′-tetrahydro-3′H,4H,7′H-spiro[isoxazole-5,6′-[2,7]methanopyrido[1,2-a][1,4]diazonine]-10′-carboxamide] | 5× |
| [2H]C([2H])([2H])OC1=NO[C@@]2(CC[C@H](C)N3C[C@H]2n2cc(C(=O)NCc4c(F)cc(F)cc4F)c(=O)c(O)c2C3=O)C1([2H])[2H] [Example 39, (3′S,5S,7′R)-12′-hydroxy-3-(methoxy-d3)-3′-methyl-1′,11′-dioxo-N-(2,4,6-trifluorobenzyl)-1′,4′,5′,11′-tetrahydro-3′H,4H,7′H-spiro[isoxazole-5,6′-[2,7]methanopyrido[1,2-a][1,4]diazonine]-4,4-d2-10′-carboxamide] | 118× |
| COC1=NO[C@@]2(CC[C@H](C)N3C[C@H]2n2cc(C(=O)NCc4ccc(F)cc4F)c(=O)c(O)c2C3=O)C1 [Example 40, (3′S,5S,7′R)—N-(2,4-difluorobenzyl)-12′-hydroxy-3-methoxy-3′-methyl-1′,11′-dioxo-1′,4′,5′,11′-tetrahydro-3′H,4H,7′H-spiro[isoxazole-5,6′-[2,7]methanopyrido[1,2-a][1,4]diazonine]-10′-carboxamide] | 113× and 112× |
| COCCOC1=NO[C@@]2(CC[C@H](C)N3C[C@H]2n2cc(C(=O)NCc4ccc(F)cc4F)c(=O)c(O)c2C3=O)C1 [Example 41, (3′S,5S,7′R)—N-(2,4-difluorobenzyl)-12′-hydroxy-3-(2-methoxyethoxy)-3′-methyl-1′,11′-dioxo-1′,4′,5′,11′-tetrahydro-3′H,4H,7′H-spiro[isoxazole-5,6′-[2,7]methanopyrido[1,2-a][1,4]diazonine]-10′-carboxamide] | 1× |
| CSC1=NO[C@@]2(CC[C@H](C)N3C[C@H]2n2cc(C(=O)NCc4c(F)cc(F)cc4F)c(=O)c(O)c2C3=O)C1 [Example 43, (3′S,5S,7′R)-12′-hydroxy-3′-methyl-3-(methylthio)-1′,11′-dioxo-N-(2,4,6-trifluorobenzyl)-1′,4′,5′,11′-tetrahydro-3′H,4H,7′H-spiro[isoxazole-5,6′-[2,7]methanopyrido[1,2-a][1,4]diazonine]-10′-carboxamide] | 186× |
| C[C@H]1CC[C@]2(CC(Br)=NO2)[C@H]2CN1C(=O)c1c(O)c(=O)c(C(=O)NCc3ccc(F)cc3F)cn12 [Example 44, (3′S,5S,7′R)-3-bromo-N-(2,4-difluorobenzyl)-12′-hydroxy-3′-methyl-1′,11′-dioxo-1′,4′,5′,11′-tetrahydro-3′H,4H,7′H-spiro[isoxazole-5,6′-[2,7]methanopyrido[1,2-a][1,4]diazonine]-10′-carboxamide] | 1600× |
| C[C@H]1CC[C@]2(CC(OC3COC3)=NO2)[C@H]2CN1C(=O)c1c(O)c(=O)c(C(=O)NCc3ccc(F)cc3F)cn12 [Example 45, (3′S,5S,7′R)—N-(2,4-difluorobenzyl)-12′-hydroxy-3′-methyl-3-(oxetan-3-yloxy)-1′,11′-dioxo-1′,4′,5′,11′-tetrahydro-3′H,4H,7′H-spiro[isoxazole-5,6′-[2,7]methanopyrido[1,2-a][1,4]diazonine]-10′-carboxamide] | 5× |
| C[C@H]1CC[C@]2(CC(OCC(F)(F)F)=NO2)[C@H]2CN1C(=O)c1c(O)c(=O)c(C(=O)NCc3ccc(F)cc3F)cn12 [Example 46, (3′S,5S,7′R)—N-(2,4-difluorobenzyl)-12′-hydroxy-3′-methyl-1′,11′-dioxo-3-(2,2,2-trifluoroethoxy)-1′,4′,5′,11′-tetrahydro-3′H,4H,7′H-spiro[isoxazole-5,6′-[2,7]methanopyrido[1,2-a][1,4]diazonine]-10′-carboxamide] | 23× |
| C[C@H]1CC[C@]2(CC(OCC(F)F)=NO2)[C@H]2CN1C(=O)c1c(O)c(=O)c(C(=O)NCc3ccc(F)cc3F)cn12 [Example 47, (3′S,5S,7′R)—N-(2,4-difluorobenzyl)-3-(2,2-difluoroethoxy)-12′-hydroxy-3′-methyl-1′,11′-dioxo-1′,4′,5′,11′-tetrahydro-3′H,4H,7′H-spiro[isoxazole-5,6′-[2,7]methanopyrido[1,2-a][1,4]diazonine]-10′-carboxamide] | 13× |
| COC1=NO[C@@]2(C=C[C@H](C)N3C[C@H]2n2cc(C(=O)NCc4ccc(F)c(Cl)c4F)c(=O)c(O)c2C3=O)C1 [Example 48, (3′S,5R,7′R)—N-(3-chloro-2,4-difluorobenzyl)-12′-hydroxy-3-methoxy-3′-methyl-1′,11′-dioxo-1′,11′-dihydro-3′H,4H,7′H-spiro[isoxazole-5,6′-[2,7]methanopyrido[1,2-a][1,4]diazonine]-10′-carboxamide] | 41× |
| COC1=NO[C@@]2(CC[C@H](C)N3C[C@H]2n2cc(C(=O)NCc4ccc(F)c(Cl)c4F)c(=O)c(O)c2C3=O)C1 [Example 49, (3′S,5S,7′R)—N-(3-chloro-2,4-difluorobenzyl)-12′-hydroxy-3-methoxy-3′-methyl-1′,11′-dioxo-1′,4′,5′,11′-tetrahydro-3′H,4H,7′H-spiro[isoxazole-5,6′-[2,7]methanopyrido[1,2-a][1,4]diazonine]-10′-carboxamide] | 415× |
| C[C@H]1CC[C@@]2(ON=C3OCCC[C@@H]32)[C@H]2CN1C(=O)c1c(O)c(=O)c(C(=O)NCc3c(F)cc(F)cc3F)cn12 [Example 50, (3S,3a R,3′S,7′R)-12′-hydroxy-3′-methyl-1′,11′-dioxo-N-(2,4,6-trifluorobenzyl)-1′,3a,4,4′,5,5′,6,11′-octahydro-3′H,7′H-spiro[pyrano[2,3-c]isoxazole-3,6′-[2,7]methanopyrido[1,2-a][1,4]diazonine]-10′-carboxamide] | 21× |
| CNC1=NO[C@@]2(CC[C@H](C)N3C[C@H]2n2cc(C(=O)NCc4c(F)cc(F)cc4F)c(=O)c(O)c2C3=O)C1 [Example 51, (3′S,5S,7′R)-12′-hydroxy-3′-methyl-3-(methylamino)-1′,11′-dioxo-N-(2,4,6-trifluorobenzyl)-1′,4′,5′,11′-tetrahydro-3′H,4H,7′H-spiro[isoxazole-5,6′-[2,7]methanopyrido[1,2-a][1,4]diazonine]-10′-carboxamide] | 17× |
| C[C@H]1CC[C@]2(CC(N(C)C)=NO2)[C@H]2CN1C(=O)c1c(O)c(=O)c(C(=O)NCc3c(F)cc(F)cc3F)cn12 [Example 52, (3′S,5S,7′R)-3-(dimethylamino)-12′-hydroxy-3′-methyl-1′,11′-dioxo-N-(2,4,6-trifluorobenzyl)-1′,4′,5′,11′-tetrahydro-3′H,4H,7′H-spiro[isoxazole-5,6′-[2,7]methanopyrido[1,2-a][1,4]diazonine]-10′-carboxamide] | 21× |
| C[C@H]1CC[C@]2(CC(Cl)=NO2)[C@H]2CN1C(=O)c1c(O)c(=O)c(C(=O)NCc3c(F)cc(F)cc3F)cn12 [Example 53, (3′S,5S,7′R)-3-chloro-12′-hydroxy-3′-methyl-1′,11′-dioxo-N-(2,4,6-trifluorobenzyl)-1′,4′,5′,11′-tetrahydro-3′H,4H,7′H-spiro[isoxazole-5,6′-[2,7]methanopyrido[1,2-a][1,4]diazonine]-10′-carboxamide] | 554× |

Source: patent US20250115620A1, “BRIDGED TRICYCLIC CARBAMOYLPYRIDONE COMPOUNDS AND USES THEREOF” (Gilead Sciences, Inc., priority 2022, published 2025)
